In article PMC6355801, “The compound TB47 is highly bactericidal against Mycobacterium ulcerans in a Buruli ulcer mouse model” (Nature Communications, 2019):

What was measured:
M. ulcerans = experiment: MIClux in liquid using bioluminescence, M. ulcerans strains; assay type: cell-based, Mycobacterium ulcerans
M. smegmatis = experiment: MIC by microplate Alamar blue assay, M. smegmatis wild-type and recombinant strains
M. marinum = experiment: MIClux in liquid using bioluminescence, M. marinum strains

**Q.** COc1ccn2nc(C)c(C(=O)NCc3ccc(N4CCC(c5ccc(OC(F)(F)F)cc5)CC4)cc3)c2c1 [TB47] was tested. Which MIClux (M. ulcerans; M. ulcerans Wild-type (AlMu 1059)) did it give?
**A.** The MIClux was 0.0016 µg/mL.

**Q.** And the MIClux (M. ulcerans; M. ulcerans Wild-type:: qcrB^THR323PRO, over-expression)?
**A.** The MIClux was 0.10 to 0.40 µg/mL.

**Q.** And the MIClux (M. ulcerans; M. ulcerans Wild-type:: qcrB^WT, over-expression of wild-type qcrB)?
**A.** Its MIClux is 0.05 to 0.10 µg/mL.

**Q.** And the MIClux (M. ulcerans; M. ulcerans Wild-type:: vector (empty plasmid))?
**A.** Its MIClux is 0.0016 to 0.0031 µg/mL.

**Q.** And the MIC (M. smegmatis; MsmΔcydAB::cydAB^Mtb)?
**A.** The MIC was 37.5 µg/mL.

**Q.** What about the MIC (M. smegmatis; MsmΔcydAB::cydAB^Mu) of the same compound?
**A.** Its MIC is 6.5 µg/mL.

**Q.** And the MIClux (M. marinum; M. marinum Wild-type (Autoluminescent strain))?
**A.** The MIClux was 0.001 to 0.008 µg/mL.

**Q.** And the MIClux (M. marinum; M. marinum Wild-type:: qcrB^THR323ALA, over-expression)?
**A.** Its MIClux is > 128 µg/mL.

**Q.** What about the MIClux (M. marinum; M. marinum Wild-type:: qcrB^WT, over-expression of wild-type qcrB) of the same compound?
**A.** The MIClux was 32 to 64 µg/mL.
